Pooled drug test results. Numbers come from NIAID ChemDB, via PubChem.

All rows: tests on isolated targets

Percent inhibition refers to the dose given; in toxicity tests it is the harm to the cells. ICn: concentration for n% inhibition. Blank or dashed fields: not listed here. Two numbers with a dash give a range or band. Fold resistance has wild type as its base. Rows are shuffled and stem from different studies.

| smiles | mutations | tested at | read by | read-out | protein | strain | organism | result |
|---|---|---|---|---|---|---|---|---|
| NCC(NC(=O)Nc1ccsc1-c1nc(C(=O)O)c(O)c(=O)[nH]1)c1ccccc1 | - | - | - | IC50 | HCV polymerase | - | Hepatitis C virus | <25 µM |
| Cc1cc(C)cc(-c2ccc(C=C3SC(=S)N(CCC(=O)O)C3=O)o2)c1 | - | - | - | IC50 | NS5 polymerase | - | Bovine viral diarrhea virus | ≤1 µM |
| O=C1O[C@H]2C(O)O[C@@H]3COC(=O)c4cc(O)c(O)c(O)c4-c4c(cc(c(O)c4O)Oc4c(cc(O)c(O)c4O)C(=O)O[C@@H]4[C@@H](OC(=O)c5cc(O)c(O)c(O)c5)[C@@H]5OC(=O)c6cc(O)c(O)c(O)c6-c6c(cc7c(c6O)OC6C(O7)C1=CC(=O)C6(O)O)C(=O)OC[C@H]5O[C@H]4O)C(=O)O[C@H]3[C@@H]2OC(=O)c1cc(O)c(O)c(O)c1 | - | - | - | IC50 | DNA polymerase | - | Epstein-Barr virus | 5.5 µg/mL |
| O=C(O)c1nc(-c2ccccc2NS(=O)(=O)c2cccc([N+](=O)[O-])c2)[nH]c(=O)c1O | - | - | - | IC50 | HCV polymerase | - | Hepatitis C virus | <100 µM |
| O=c1c(-c2nn[nH]n2)cn2ccn(Cc3cccc(Cl)c3)c(=O)c2c1O | - | - | ELISA | IC50 | Integrase | - | HIV-1 | 0.01–0.1 µM |
| Cc1c(-c2ccccc2)sc(C(=O)O)c1N(C(=O)c1ccc(Cl)cc1Cl)C(C)C | - | - | - | IC50 | NS3 ATPase | - | Hepatitis C virus | 5–20 µM |
| COC(=O)c1nc(-c2ccc(OCc3c(Cl)sc4ccc(Cl)cc34)cc2)[nH]c(=O)c1O | - | - | - | IC50 | HCV polymerase | - | Hepatitis C virus | <50 µM |
| COc1ccc(OC)c(Cc2sc3nc(N)nc(N)c3c2C)c1 | - | - | - | IC50 | Dihydrofolate reductase | TYPE 1 | Cryptosporidium parvum | 8.4 µM |
| O=C(/C=C/c1ccccc1Cl)Nc1nnc(NCCCCc2ccccc2)s1 | - | - | - | IC50 | Polymerase | - | Human cytomegalovirus | >25 µM |
| COc1ccc(CC2CCc3nc(N)nc(N)c3C2)cc1OC | - | - | - | IC50 | Dihydrofolate reductase | TYPE 1 | Cryptosporidium parvum | 0.4 µM |
| Clc1cccc(N2CCN(c3cncc(-c4ccoc4)n3)CC2)c1 | - | 1 µM | - | inhibition | UL97 kinase | - | Cytomegalovirus | <50% |
| Nc1nc(N)c2nc(CN3c4ccccc4Sc4ccccc43)cnc2n1 | - | - | - | IC50 | Dihydrofolate reductase | TYPE 1 | Cryptosporidium parvum | 1.8 µM |
| Nc1ccn([C@@H]2CS[C@H](COP(=O)(O)OP(=O)(O)OP(=O)(O)O)O2)c(=O)n1 | RT-K65R K103N Q151M | - | radiometric | fold resistance | Reverse transcriptase | - | HIV | 0.52 |
| CCc1sc2nc(N)nc(N)c2c1-c1ccc(Cl)cc1 | - | - | - | IC50 | Dihydrofolate reductase | TYPE 1 | Cryptosporidium parvum | >10 µM |
| Cc1ccc(C(=O)N(Cc2cccc(C(C)(C)C)c2)c2cc(-c3ccccc3)sc2C(=O)O)cc1 | - | - | - | IC50 | NS3 ATPase | - | Hepatitis C virus | <5 µM |
| O=c1c(-c2cccc(Cl)c2)cn2ccn(Cc3cccc(Cl)c3)c(=O)c2c1O | - | - | ELISA | IC50 | Integrase | - | HIV-1 | 0.01–0.1 µM |
| O=C(O)c1cc2nc(-c3ccco3)c(C3CCCCC3)c(=O)n2[nH]1 | - | - | - | IC50 | RNA-dependent RNA polymerase | - | Hepatitis C virus | 1–10 µM |
| COc1ccc(OC)c(NCc2cnc3nc(N)nc(N)c3n2)c1 | - | - | - | IC50 | Dihydrofolate reductase | TYPE 2 | Cryptosporidium parvum | 3.2 µM |
| Fc1ccc(-c2cncc(N3CCN(c4ccccn4)CC3)n2)c(F)c1 | - | - | - | IC50 | UL97 kinase | - | Cytomegalovirus | <100 µM |
| O=C(Nc1nnc(NCc2cccnc2)s1)c1cc2ccccc2s1 | - | - | - | IC50 | Polymerase | - | Human cytomegalovirus | >25 µM |
| COc1cc(Cc2sc3nc(N)nc(N)c3c2C)c(Br)c(OC)c1OC | - | - | - | IC50 | Dihydrofolate reductase | TYPE 1 | Cryptosporidium parvum | 0.78 µM |
| O=C(O)c1ccc(-n2c(O)c(C=c3ccc(=C4N=C(Cl)C(Cl)=N4)o3)sc2=S)cc1 | - | - | - | IC50 | NS5 polymerase | - | Bovine viral diarrhea virus | ≤1 µM |
| CCC(CC)Cc1c(-c2ccc(OCc3ccccc3)cc2)nc2cc(C(=O)O)[nH]n2c1=O | - | - | - | IC50 | RNA-dependent RNA polymerase | - | Hepatitis C virus | 1–10 µM |
| O=C(O)c1nc(-c2ccccc2NS(=O)(=O)c2cc(Cl)c(Oc3ccc([N+](=O)[O-])cc3Cl)c(Cl)c2)[nH]c(=O)c1O | - | - | - | IC50 | HCV polymerase | - | Hepatitis C virus | <100 µM |
| CN(C)c1ccc(-c2cncc(N3CCN(c4ccc(F)cc4F)CC3)n2)cc1 | - | - | - | IC50 | UL97 kinase | - | Cytomegalovirus | <10 µM |
| O=c1c(-c2ccncn2)cn2ccn(Cc3cccc(Cl)c3F)c(=O)c2c1O | - | - | ELISA | IC50 | Integrase | - | HIV-1 | <0.01 µM |
| Cc1ccc(-c2ccc(C=C3SC(=S)N(CCC(=O)O)C3=O)o2)nc1 | - | - | - | IC50 | NS5 polymerase | - | Bovine viral diarrhea virus | ≤1 µM |
| Nc1ccccc1CNC(=O)Nc1ccccc1-c1nc(C(=O)O)c(O)c(=O)[nH]1 | - | - | - | IC50 | HCV polymerase | - | Hepatitis C virus | <100 µM |
| Fc1ccc(-c2cncc(N3CCN(c4cccc(C(F)(F)F)c4)CC3)n2)cc1Cl | - | - | - | IC50 | UL97 kinase | - | Cytomegalovirus | <100 µM |
| NS(=O)(=O)c1ccc(CNc2nnc(NC(=O)c3ccc(Cl)c(Cl)c3)s2)cc1 | - | - | - | IC50 | Polymerase | - | Human cytomegalovirus | >25 µM |
| O=C(Nc1ccsc1-c1nc(C(=O)O)c(O)c(=O)[nH]1)NC(Cc1ccccc1)c1ccccc1 | - | - | - | IC50 | HCV polymerase | - | Hepatitis C virus | <25 µM |
| O=C(O)c1cc2nc(-c3ccc(F)cc3)cc(-c3cccc(Cl)c3)n2n1 | - | - | - | IC50 | RNA-dependent RNA polymerase | - | Hepatitis C virus | >10 µM |
| Cc1c(Cl)cccc1S(=O)(=O)Nc1ccccc1-c1nc(C(=O)O)c(O)c(=O)[nH]1 | - | - | - | IC50 | HCV polymerase | - | Hepatitis C virus | <100 µM |
| Cc1ccc(N2CCN(c3cncc(-c4ccc(N(C)C)cc4)n3)CC2)cc1 | - | - | - | IC50 | UL97 kinase | - | Cytomegalovirus | <100 µM |
| Cc1ccccc1S(=O)(=O)Nc1cc(CCc2ccccc2)sc1C(=O)O | - | - | - | IC50 | NS3 ATPase | - | Hepatitis C virus | 5–20 µM |
| O=C(O[C@@H]1O[C@@H]2COC(=O)c3cc4c(O)c(O)c3-c3c(cc(O)c(O)c3O)C(=O)O[C@H]2[C@H](OC(=O)c2cc(O)c(O)c(O)c2)[C@H]1OC(=O)c1cc(O)c(O)c(O)c1Oc1cc2c(c(O)c1O)-c1c(cc(O)c(O)c1O)C(=O)OC[C@H]1OC(O)[C@H](OC(=O)c3cc(O)c(O)c(O)c3O4)[C@@H](OC(=O)c3cc(O)c(O)c(O)c3)[C@@H]1OC2=O)c1cc(O)c(O)c(O)c1 | - | 5 µg/mL | - | inhibition | DNA polymerase | - | Epstein-Barr virus | 47.5% |
| COc1cccc(-c2cc(-c3ccc(F)cc3)nc3cc(C(=O)O)nn23)c1 | - | - | - | IC50 | RNA-dependent RNA polymerase | - | Hepatitis C virus | >10 µM |
| N#Cc1ccc(-c2cc(NS(=O)(=O)c3ccc(Cl)cc3)c(C(=O)O)s2)cc1 | - | - | - | IC50 | NS3 ATPase | - | Hepatitis C virus | <5 µM |
| CSc1ccccc1-c1cncc(N2CCN(c3ccccn3)CC2)n1 | - | - | - | IC50 | UL97 kinase | - | Cytomegalovirus | <100 µM |
| O=C(O)CCN1C(=O)C(=Cc2ccc(-c3ccc(Cl)c(Cl)c3)o2)SC1=S | - | - | - | IC50 | NS5 polymerase | - | Bovine viral diarrhea virus | ≤1 µM |
| O=C(/C=C/c1ccccc1)Nc1nnc(NCc2ccc(F)cc2)s1 | - | - | - | IC50 | Polymerase | - | Human cytomegalovirus | >25 µM |
| O=C(O)c1nn2c(C3CCCCC3)c(-c3ccc(OCc4ccccc4)cc3)cnc2c1Br | - | - | - | IC50 | RNA-dependent RNA polymerase | - | Hepatitis C virus | 1–10 µM |
| O=C(NCc1ccccn1)c1cn2c(c(O)c1=O)C(=O)N(Cc1cccc(Cl)c1)CC2 | - | - | ELISA | IC50 | Integrase | - | HIV-1 | 0.01–0.1 µM |
| O=C(Nc1nnc(NCCc2ccccc2)s1)c1ccc(Cl)cc1Cl | - | - | - | IC50 | Polymerase | - | Human cytomegalovirus | >25 µM |
| O=C(O)CCNc1cc(-c2ccc(Cl)cc2)nc2cc(C(=O)O)nn12 | - | - | - | IC50 | RNA-dependent RNA polymerase | - | Hepatitis C virus | >10 µM |
| O=C(O)CN1C(=O)C(=Cc2ccc(-c3ccc(Cl)cc3)o2)SC1=S | - | - | - | IC50 | NS5 polymerase | - | Bovine viral diarrhea virus | ≤1 µM |
| O=C(CCc1c(F)cccc1Cl)Nc1ccccc1-c1nc(C(=O)O)c(O)c(=O)[nH]1 | - | - | - | IC50 | HCV polymerase | - | Hepatitis C virus | <100 µM |
| O=C(/C=C/c1ccccc1Cl)Nc1nnc(NCCc2cccs2)s1 | - | - | - | IC50 | Polymerase | - | Human cytomegalovirus | >25 µM |
| Nc1ccc(-c2nc(C(=O)O)c(O)c(=O)[nH]2)cc1 | - | - | - | IC50 | HCV polymerase | - | Hepatitis C virus | <100 µM |
| COc1ccc(-c2cc(-c3ccc(OCc4ccccc4)cc3)nc3cc(C(=O)O)nn23)cc1 | - | - | - | IC50 | RNA-dependent RNA polymerase | - | Hepatitis C virus | 1–10 µM |
| OCC1CCCN1c1nccnc1-c1cc2ccccc2o1 | - | - | - | IC50 | UL97 kinase | - | Cytomegalovirus | <10 µM |
| O=C(Nc1nnc(NCCc2c[nH]c3ccccc23)s1)c1ccc(Br)cc1 | - | - | - | IC50 | Polymerase | - | Human cytomegalovirus | >25 µM |

Repeating the first 4 entries:

smiles	mutations	tested at	read by	read-out	protein	strain	organism	result
NCC(NC(=O)Nc1ccsc1-c1nc(C(=O)O)c(O)c(=O)[nH]1)c1ccccc1	-	-	-	IC50	HCV polymerase	-	Hepatitis C virus	<25 µM
Cc1cc(C)cc(-c2ccc(C=C3SC(=S)N(CCC(=O)O)C3=O)o2)c1	-	-	-	IC50	NS5 polymerase	-	Bovine viral diarrhea virus	≤1 µM
O=C1O[C@H]2C(O)O[C@@H]3COC(=O)c4cc(O)c(O)c(O)c4-c4c(cc(c(O)c4O)Oc4c(cc(O)c(O)c4O)C(=O)O[C@@H]4[C@@H](OC(=O)c5cc(O)c(O)c(O)c5)[C@@H]5OC(=O)c6cc(O)c(O)c(O)c6-c6c(cc7c(c6O)OC6C(O7)C1=CC(=O)C6(O)O)C(=O)OC[C@H]5O[C@H]4O)C(=O)O[C@H]3[C@@H]2OC(=O)c1cc(O)c(O)c(O)c1	-	-	-	IC50	DNA polymerase	-	Epstein-Barr virus	5.5 µg/mL
O=C(O)c1nc(-c2ccccc2NS(=O)(=O)c2cccc([N+](=O)[O-])c2)[nH]c(=O)c1O	-	-	-	IC50	HCV polymerase	-	Hepatitis C virus	<100 µM